From patent US7011824B2, “Methods of treating manure” (priority 1998, dated 2006)

Test: Effect of aluminum chloride and alum on phosphorus solubility and pH of swine manure slurry (Example 1)
Conditions: 0-10 ml of 10% solution per 100 ml slurry; incubated 3 days in the dark at 25° C.; FIG. 2

[Cl][Al]([Cl])[Cl] [aluminum chloride]
soluble phosphorus (soluble reactive phosphorus, SRP): decreased the amount of soluble phosphorus
